Data source: PubChem BioAssay AID624099 (ICCB-Longwood, 2012)

- Aim: 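Host factors E2 relies on to silence an HPV18 LCR reporter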 (primary screen)
- System: human C33A cervical carcinoma cells (HPV-negative) stably expressing BPV1 E2 and an HPV18 LCR luciferase reporter
- Knock-down reagent: siRNA pool against human genes, 40 nM
- Time to read-out: 72 h
- Read-out: 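Per-well luciferase luminescence, z-scored on each plate against the plate mean and SD with control wells left out, then averaged across three replicate plates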
- Reading the numbers: mean z-score and z-score: higher = stronger reporter signal, weaker E2 silencing
- Active means: 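Mean z ≥ 2 together with z ≥ 2 in two or more of the three replicates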
This is one part, drawn at random, of about 21,000 reagents. 497 of all reagents (2.4%) were called active. 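Higher z means weaker E2 silencing; only reporter increases were scored, and knock-downs that hurt cell survival may mask genuine repressor factors.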 A number with no mark means an inactive call.

For SACK1D (GeneID 81610), how do the results read?
mean z-score: 0.45; z-score, replicate A: 0.44; z-score, replicate B: 0.32; z-score, replicate C: 0.59

For CEP85 (GeneID 64793), how do the results read?
mean z-score: -1.67; z-score, replicate A: -1; z-score, replicate B: -2.07; z-score, replicate C: -1.96

What did the screen give for ANKRD13D (GeneID 338692)?
mean z-score: 0.26; z-score, replicate A: 0.05; z-score, replicate B: 0.25; z-score, replicate C: 0.48

How did the screen score FBXW9 (GeneID 84261)?
mean z-score: 1.22; z-score, replicate A: 1.75; z-score, replicate B: 0.92; z-score, replicate C: 0.98

What is on record for SPEM1 (GeneID 374768)?
mean z-score: -1.88; z-score, replicate A: -1.98; z-score, replicate B: -2.05; z-score, replicate C: -1.6

Which result is listed for ZNF124 (GeneID 7678)?
mean z-score: 0.65; z-score, replicate A: 0.58; z-score, replicate B: 0.6; z-score, replicate C: 0.77

What is on record for DCUN1D3 (GeneID 123879)?
mean z-score: 0.58; z-score, replicate A: 0.82; z-score, replicate B: 0.49; z-score, replicate C: 0.42

What is on record for ZNF839 (GeneID 55778)?
mean z-score: 0.52; z-score, replicate A: 0.72; z-score, replicate B: 0.39; z-score, replicate C: 0.45

For TRABD2A (GeneID 129293), what was measured?
mean z-score: 0.1; z-score, replicate A: -0.03; z-score, replicate B: -0.13; z-score, replicate C: 0.47

With GEMIN2 (GeneID 8487), how do the results read?
mean z-score: 0.01; z-score, replicate A: -0.28; z-score, replicate B: -0.08; z-score, replicate C: 0.4

With DICER1-AS1 (GeneID 400242), what does the deposit list?
mean z-score: 0.95; z-score, replicate A: 1.16; z-score, replicate B: 1.02; z-score, replicate C: 0.67

For AP5S1 (GeneID 55317), what does the deposit list?
mean z-score: 0.61; z-score, replicate A: 0.14; z-score, replicate B: 1.09; z-score, replicate C: 0.59

For PVALB (GeneID 5816), how do the results read?
mean z-score: -0.8; z-score, replicate A: -0.75; z-score, replicate B: -1.05; z-score, replicate C: -0.6

What did the screen give for TBATA (GeneID 219793)?
mean z-score: -0.78; z-score, replicate A: -0.84; z-score, replicate B: -1.13; z-score, replicate C: -0.37
